{"source": "PubChem BioAssay AID504761 – Drosophila RNAi Screening Center | 2011", "assay": "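Fly genes whose silencing reduces dengue virus type 2 infection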 (primary screen)", "cells": "D.Mel-2 cells from Drosophila", "reagents": "long dsRNA against Drosophila genes", "challenge": "infection with dengue virus type 2; dose and infection time not stated", "read-out": "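Per well on two replicate plates, imaging gave the percent of cells positive for viral envelope protein, ranked by infection, and a nuclear count of cells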", "reading the numbers": "infection score: higher = more virus-infected cells", "hit rule": "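Low infection ranks in the two replicates (chance level up to 0.065) followed by a retest with a 1.5-fold or larger significant decrease, p below 0.05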", "calls": "active = confirmed: knock-down lowers infection; inactive = not picked or not confirmed", "note": "The deposit covers about 22,000 reagents; below is a random part of those with a known target gene and a result. Of all reagents, 116 (0.52%) are marked active. 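Calls depend on retest data that are not deposited; infection was ranked per plate without normalising between plates; the unit of the infection score is not given.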 Entries without a mark were called inactive. Reagents against one gene are numbered here. Further read-outs or replicates are left out here. Not given: the amount of reagent, the time to read-out."}
{"Target gene": "CG14357", "dsRNA no.": 1, "infection score, replicate 1": 0.97}
{"Target gene": "CG14357", "dsRNA no.": 2, "infection score, replicate 1": 19.7}
{"Target gene": "mRpL11", "dsRNA no.": 1, "infection score, replicate 1": 22.9}
{"Target gene": "HDAC1", "dsRNA no.": 1, "infection score, replicate 1": 3.76}
{"Target gene": "CG13887", "dsRNA no.": 1, "infection score, replicate 1": 9.9}
{"Target gene": "CG13560", "dsRNA no.": 1, "infection score, replicate 1": 3.52}
{"Target gene": "CG13560", "dsRNA no.": 2, "infection score, replicate 1": 16.8}
{"Target gene": "vsg", "dsRNA no.": 1, "infection score, replicate 1": 3.06}
{"Target gene": "vsg", "dsRNA no.": 2, "infection score, replicate 1": 1.28}
{"Target gene": "shams", "dsRNA no.": 1, "infection score, replicate 1": 1.48}
{"Target gene": "His2Av", "dsRNA no.": 1, "infection score, replicate 1": 3.36}
{"Target gene": "COX5BL", "dsRNA no.": 1, "infection score, replicate 1": 6.64}
{"Target gene": "COX5BL", "dsRNA no.": 2, "infection score, replicate 1": 14.2}

Records listed so far whose gene name starts with C or c (7):
{"Target gene": "CG14357", "dsRNA no.": 1, "infection score, replicate 1": 0.97}
{"Target gene": "CG14357", "dsRNA no.": 2, "infection score, replicate 1": 19.7}
{"Target gene": "CG13887", "dsRNA no.": 1, "infection score, replicate 1": 9.9}
{"Target gene": "CG13560", "dsRNA no.": 1, "infection score, replicate 1": 3.52}
{"Target gene": "CG13560", "dsRNA no.": 2, "infection score, replicate 1": 16.8}
{"Target gene": "COX5BL", "dsRNA no.": 1, "infection score, replicate 1": 6.64}
{"Target gene": "COX5BL", "dsRNA no.": 2, "infection score, replicate 1": 14.2}

The listing continues:
{"Target gene": "CG11560", "dsRNA no.": 1, "infection score, replicate 1": 14.8}
{"Target gene": "CG11560", "dsRNA no.": 2, "infection score, replicate 1": 9.52}
{"Target gene": "P32", "dsRNA no.": 1, "infection score, replicate 1": 14.1}
{"Target gene": "lft", "dsRNA no.": 1, "infection score, replicate 1": 2.89}
{"Target gene": "PIG-Wb", "dsRNA no.": 1, "infection score, replicate 1": 3.53}
{"Target gene": "CG11839", "dsRNA no.": 1, "infection score, replicate 1": 0.25}
{"Target gene": "icln", "dsRNA no.": 1, "infection score, replicate 1": 4.5}
{"Target gene": "icln", "dsRNA no.": 2, "infection score, replicate 1": 6.33}
